In patent US6399654B1, “Biflavanoids and derivatives thereof as antiviral agents” (priority 1995, dated 2002):
Read-outs that look alike come from different tables or passages of the source.

Tests used:
[1] = tested on: Hepatitis B Virus (HBV); assay: Inhibition of HBV replication in 2.2.15 cells, extracellular (virion) HBV DNA;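 further: extracellular virion HBV DNA in culture medium measured by slot blot hybridization with a 32P-labeled HBV probe, quantified against HBV DNA standards, after 9 days of daily dosing, compared with day 0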
[2] = tested on: Adenovirus Type 5; assay: Adenovirus type 5 neutral red dye uptake in A549 cells; assay type: cell-based
[3] = tested on: Measles Virus; assay: Measles virus neutral red dye uptake in BSC-1 cells; assay type: cell-based
[4] = tested on: Adenovirus Type 5; assay type: cell-based
[5] = tested on: Respiratory Syncytial Virus; assay type: cell-based
[6] = tested on: Influenza A (H1N1) Texas/36/91; assay type: cell-based, influenza A virus
[7] = tested on: Parainfluenza Type 3 Virus; assay type: cell-based
[8] = tested on: Influenza B Panama/45/90; assay type: cell-based
[9] = tested on: Influenza A (H3N2) Beijing/32/92; assay type: cell-based, influenza A virus
[10] = tested on: Influenza A (H3N2) Beijing/32/92; assay type: cell-based, influenza A virus; remark: listed apart in the source
[11] = tested on: Respiratory Syncytial Virus; assay type: cell-based; remark: listed apart in the source
[12] = tested on: Influenza A (H1N1) Texas/36/91; assay type: cell-based, influenza A virus; remark: listed apart in the source
[13] = tested on: Measles Virus; assay type: cell-based
[14] = tested on: Influenza B Panama/45/90; assay type: cell-based; remark: listed apart in the source
[15] = tested on: Parainfluenza Type 3 Virus; assay type: cell-based; remark: listed apart in the source

Compound	TI (IC50/EC90) [1]	Neutral Red SI (IC50/EC50) [2]	Neutral Red SI (IC50/EC50) [3]	CPE Inhibition SI (IC50/EC50) [4]	CPE Inhibition SI (IC50/EC50) [5]	CPE Inhibition SI (IC50/EC50) [6]	CPI Inhibition SI (IC50/EC50) [7]	CPE Inhibition SI (IC50/EC50) [8]	CPE Inhibition SI (IC50/EC50) ([8]; listed as volkensiflavone hexamethyl ether)	CPE Inhibition SI (IC50/EC50) ([8]; listed as volkensiflavone hexamethyl ether (6))	CPE Inhibition SI (IC50/EC50) [9]	Neutral Red SI (IC50/EC50) [10]	Neutral Red SI (IC50/EC50) [11]	Neutral Red SI (IC50/EC50) [12]	CPI Inhibition SI (IC50/EC50) [13]	Neutral Red SI (IC50/EC50) [14]	Neutral Red SI (IC50/EC50) [15]
Nc1ccn([C@H]2CC[C@@H](CO)O2)c(=O)n1 [2′,3′-ddC, 2′,3′-dideoxycytosine, reference compound]	30																
COc1ccc(-c2cc(=O)c3c(OC)cc(OC)c(C4C(=O)c5c(OC)cc(OC)cc5OC4c4ccc(OC)cc4)c3o2)cc1 (centres unmarked) [Volkensiflavone hexamethyl ether (6), volkensiflavone hexamethyl ether]		0	1	0	2	0	0	˜38	38	~38	0	0	>1	0	1	5.0	0
Nc1ncnc2c1ncn2C[C@@H](CO)OCP(=O)(O)O [HPMPA, (S)-1-(3-hydroxy-2-phosophonylmethoxypropyl)adenine, reference compound]		5		3													
O=C1CC(c2ccc(O)cc2)Oc2cc(O)c(-c3c(O)cc4c(c3O)C(=O)CC(c3ccc(O)cc3)O4)c(O)c21 (centres unmarked) [Succedaneaflavanone (11), succedaneaflavanone]		1	1	0	0	<1.5	0	15			<1.2	1.0	0	1.0	0	3.2	0
CC(=O)Oc1ccc([C@@H]2CC(=O)c3c(cc(OC(C)=O)c(-c4c(OC(C)=O)cc5c(c4OC(C)=O)C(=O)C[C@@H](c4ccc(OC(C)=O)cc4)O5)c3OC(C)=O)O2)cc1 [Succedaneaflavanone hexaacetate (12), succedaneaflavanone hexaacetate]		1	<1	1	0	1.5	0	2.2			1.4	1.0	1	1.0	0	1.0	0
O=C1CC(c2ccc(O)cc2)Oc2cc(O)c(-c3c(O)cc(O)c4c3OC(c3ccc(O)cc3)CC4=O)c(O)c21 (centres unmarked) [Rhusflavanone (9), rhusflavanone]		0	8	1	0	0	0	9.3			0	1.0	0	1.1	2		0
Nc1nc2c(ncn2CCC(CO)CO)c(=O)[nH]1 [Penciclovir, penciclovir, reference compound]	471																
CC(=O)Oc1ccc([C@@H]2CC(=O)c3c(cc(OC(C)=O)c(-c4c(OC(C)=O)cc(OC(C)=O)c5c4O[C@H](c4ccc(OC(C)=O)cc4)CC5=O)c3OC(C)=O)O2)cc1 [Rhusflavanone hexaacetate (10), rhusflavanone hexaacetate]		1	0	0	0	0	0	0			0	1.0	2	1.0	0		0
